From publication PMC10994559 (PLOS Neglected Tropical Diseases, 2024) come the findings set out here.

The test system of this data set is IFN-γ. As to the kind of experiment: IFN-γ in splenocyte supernatant of treated mice (ELISA). It is filed as in vivo, Balb/c mice. For orientation: An ELISA detects its analyte on a solid surface through an enzyme-linked reagent.

“Also recorded” adds a separate entry of the source.

Regarding `CC[C@@H](C)[C@H](c1nc2ccccc2n1Cc1cn(-c2ccc(C(F)(F)F)cc2)nn1)N1C(=O)c2ccccc2C1=O` [PHT-39], the IFN-γ/IL-4 ratio result is given as “did not show any significant difference with DMSO control” (PHT-39 13.75 mg/kg i.p.) and “significantly higher ratio” (PHT-39 13.75 mg/kg s.c.). The “IFN-γ production, splenocyte supernatant” value (PHT-39 13.75 mg/kg s.c., vs PHT-39 i.p and AmB, 13.75 mg/kg) is given as “higher in group 2 (PHT-39 s.c) compared to PHT-39 i.p group; also recorded: induced more IFN-γ”.

On to `C[C@@H]1[C@H](O)[C@@H](C)/C=C/C=C/C=C/C=C/C=C/C=C/C=C/[C@H](O[C@@H]2O[C@H](C)[C@@H](O)[C@H](N)[C@@H]2O)C[C@@H]2O[C@](O)(C[C@@H](O)C[C@@H](O)[C@H](O)CC[C@@H](O)C[C@@H](O)CC(=O)O[C@H]1C)C[C@H](O)[C@H]2C(=O)O` [AmB, amphotericin B, reference compound], for which the IFN-γ/IL-4 ratio entry (AmB 8 mg/kg i.p.) is given as “higher than in the DMSO control group”. The “IFN-γ production, splenocyte supernatant” value (AmB 8 mg/kg i.p., vs DMSO control) is given as “suppressed the amount of IFN-γ significantly”.
